Patent US20250152504A1, “INTRAUTERINE SYSTEMS COMPRISING ANTI-INFECTIVES FOR STEADY-STATE ACCUMULATION TO DISTAL EXTRAUTERINE TISSUE” (priority 2023, published 2025)

Assays:
[1] = In vitro drug release from TPU matrix delivery system prototypes; type: physicochemical; conditions: for Predicted T50%: from best-fit release model; for release rate: per each ⅓ segment of the device
Protocol: Films were cut into disks with a 1-inch diameter die punch; disks were stacked and placed between two pieces of aluminum foil and compressed under a metal weight on a 120° C. dry bath. Thickness was monitored frequently until it measured 3.5 mm with digital calipers calibrated to 0.01 mm. Devices were cut from thick films using a custom rectangular 3.5 mm×13.3 mm die punch.
All release tests were performed in sink conditions in PBS supplemented with 2% w/v Cremophor® A25/Emulgin® B25. For the first 7-days of drug release testing, 1 mL samples were taken daily; following 7 days, samples were taken every 3-4 days. At all timepoints, bottles were drained and replaced with fresh media following sampling.
A qualification for selecting an optimal TPU for DPV delivery in this application is the time to achieve 50% cumulative release of drug. This is based on the standard use time of hormonal IUDs, which in practice are removed once about half of the initial load of drug is depleted from the device. Here, this standard was used as a benchmark to evaluate the sustained release properties of candidate delivery system designs. […] The fit of first-order release kinetics to the data was assessed. Equations 1 and 2 describe drug release from a system where dissolution is dependent on a concentration gradient.
Where k is the first order rate constant, Ct is the concentration of drug in solution at time t and C0 is the initial concentration of drug.
Where Q is the amount of drug release in time t and kh is the Higuchi release constant.
Based on the best-fit square-root of time relation, T50% was calculated for each TPU. […] Korsmeyer and Peppas provided a method for understanding drug release mechanisms of swelling and non-swelling polymeric systems, given by Equation 4: […]
Where Mt/M∝ is the fraction of drug released at time t, K is the rate constant, and n is the release exponent.

[2] = Triple active compound (RAL, MVC, ETR) intrauterine system in vivo study, tissue and secretion concentrations
From the text: Described herein is a study conducted on an intrauterine system having a plurality of delivery systems (such as shown in FIGS. 1D and 1E). This study included three matrix delivery systems. The first delivery system included raltegravir (RAL), the second delivery system included etravirine (ETR), and the third delivery system included maraviroc (MVC). The intrauterine system was implanted and retained in the uterus of a patient for 28 days.
Multiple samples were taken before, during, and after insertion of the intrauterine system. Plasma samples were taken an hour before insertion, at insertion, 24 hours after insertion, 48 hours after insertion, 72 hours after insertion, 7 days after insertion, 14 days after insertion, 21 days after insertion, and 28 days after insertion (when the intrauterine system was removed). Vaginal swabs were taken an hour before insertion, at 7 days after insertion, 14 days after insertion, 21 days after insertion, and 28 days after insertion. Vaginal biopsies were taken an hour before insertion, 7 days after insertion, and 28 days after insertion. Endometrial and cervical biopsies were taken an hour before insertion and 28 days after insertion. Histology was also performed an hour before insertion, and consistent visual inspection was done throughout for safety.

[3] = Post-use assay of residual ARVs in removed IUDs (triple study); type: in vivo
From the text: FIGS. 15A-15C are graphs showing post-use assays of residual anti-retroviral pharmaceutical compositions in removed intrauterine devices, in accordance with the present technology. […]

Substance: maraviroc [MVC]
- Actual T50% ([1]; 1 wt % loading, TPU2 matrix): 2.5 days
- First-Order: k ([1]; 1 wt % loading, TPU2 matrix): 0.013, h^−1
- Higuchi: kH ([1]; 1 wt % loading, TPU2 matrix): 0.125, %/h^1/2
- Predicted T50% ([1]; 1 wt % loading, TPU2 matrix): 1 days
- Actual T50% ([1]; 1 wt % loading, TPU3 matrix): 7 days
- First-Order: k ([1]; 1 wt % loading, TPU3 matrix): 0.003, h^−1
- Higuchi: kH ([1]; 1 wt % loading, TPU3 matrix): 0.037, %/h^1/2
- Korsmeyer-Peppas Constant: n ([1]; 1 wt % loading, TPU3 matrix): 0.890,
- Predicted T50% ([1]; 1 wt % loading, TPU3 matrix): 7.5 days
- First-Order: k ([1]; 1 wt % loading, TPU4 matrix): 0.0005, h^−1
- Higuchi: kH ([1]; 1 wt % loading, TPU4 matrix): 0.012, %/h^1/2
- Korsmeyer-Peppas Constant: n ([1]; 1 wt % loading, TPU4 matrix): 0.793,
- Predicted T50% ([1]; 1 wt % loading, TPU4 matrix): 68 days
- time to reach 100% release ([1]; 1 wt %, TPU2 matrix): 13 days
- cumulative release of encapsulated drug ([1]; 1 wt %, TPU2 matrix, first 24 hours): approximately 50%
- cumulative release ([1]; 1 wt %, TPU4 matrix, total by 30 days): 33.83%
- First-Order: k ([1]; 16.6 wt % loading, TPU4 matrix): 0.0002, h^−1
- Higuchi: kH ([1]; 16.6 wt % loading, TPU4 matrix): 0.007, %/h^1/2
- Korsmeyer-Peppas Constant: n ([1]; 16.6 wt % loading, TPU4 matrix): 0.529,
- Predicted T50% ([1]; 16.6 wt % loading, TPU4 matrix): 221 days
- cumulative release of loaded drug ([1]; 16.6 wt %, TPU4 matrix, after 30 days): approximately 18%
- release rate ([1]; 16.6 wt %, TPU4 matrix, final rate at 30 days): ~16 µg/day
- First-Order: k ([1]; 30 wt % loading, TPU4 matrix): 0.0001, h^−1
- Higuchi: kH ([1]; 30 wt % loading, TPU4 matrix): 0.003, %/h^1/2
- Predicted T50% ([1]; 30 wt % loading, TPU4 matrix): 737 days
- cumulative release of encapsulated drug ([1]; 30 wt %, TPU4 matrix, at 30 days): approximately 7%
- release rate ([1]; 30 wt %, TPU4 matrix, at study terminus (30 days)): 27.65 µg/day
- tissue concentration, Vagina ([2]; 7 days after insertion): 103.79 ng/mL
- tissue concentration, Cervix ([2]; 28 days after insertion): 137.275 ng/mL
- tissue concentration, Endometrium ([2]; 28 days after insertion): 523.41 ng/mL
- tissue concentration, Rectum ([2]; 28 days after insertion): 25.72 ng/mL
- tissue concentration, Vagina ([2]; 28 days after insertion): 108.30 ng/mL
- Mean concentration in vaginal secretions ([2]; in vivo): 12752.31 ng/mL
- T50% [3]: 58 days
- Average dose ([3]; 28 days): 77.75 µg/day
- Total DPV released ([3]; 28 days): 2.18 mg
